PubChem BioAssay AID1259414 | Drosophila RNAi Screening Center, 2018

Purpose: 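Genome-wide screen for host control of endosymbiont load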 (primary screen)
Cell system: Drosophila JW18 cells infected with Wolbachia
Knock-down reagent: long dsRNA against Drosophila genes, 0.25 µg dsRNA per well of a 384-well plate
Duration: 5 days
Challenge: cells persistently infected with Wolbachia before knock-down; no added drug
Measured: 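Automated imaging of bacterial rRNA staining divided by host cell count, reported as plate-normalised robust z-score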
Reading the numbers: Wolbachia per cell robust z: higher = more Wolbachia per host cell than the plate typical
Hit rule: 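Active if absolute robust z reaches 1.5 in two or more of three replicates, leaving out multi- or no-target dsRNAs, genes unexpressed in JW18 and A1 wells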
In all, the deposit lists about 24,000 reagents; shown is a random part of those with a known target gene and a result. In the full data, about 1,210 (5%) were called active. 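Inactive calls also include excluded dsRNAs with several or no targets, genes unexpressed in JW18, and well A1, regardless of score.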 A number with no mark means an inactive call. Names joined by + are all predicted targets of the reagent. No sequences are given here.

predicted target	DRSC id	Wolbachia per cell robust z, rep 1	Wolbachia per cell robust z, rep 2	Wolbachia per cell robust z, rep 3
Ilp7	DRSC17895	0.617	0.303	0.541
Dysb	DRSC10730	0.73	0.569	1.66
Rpt4	DRSC18713	1.23	1.75	1.33
ema	DRSC14536	-1.56 (active)	-4.98	0.279
NANS	DRSC15743	-1.46	-3.03	-4.81
NANS	DRSC27626	-1.33	-0.422	0.696
CG32305	DRSC08614	0.622	0.16	-0.24
CG32305	DRSC29854	-1.13	-1.22	-0.0128
GPHR	DRSC07075	-0.227	-0.101	-1.23
BaraC	DRSC03885	0.248	-0.0455	-0.968
Acadvl	DRSC07022	-0.495	-0.413	0.0555
Acadvl	DRSC26484	-1.08	0.157	0.122
Wnt4	DRSC00976	-1.73 (active)	-1.23	-1.56
Wnt4	DRSC03477	0.257	-1.04	0.198
Cpr64Ad	DRSC08284	-8.02	-0.665	0.705
Cpr64Ad	DRSC25264	-0.432	-10.8	0.507
CG7841	DRSC10922	0.112	-1.56	-1.19
ReepA	DRSC04572	-0.0056	-0.0174	0.348
ReepA	DRSC22475	0.17	0.144	-0.171
ReepA	DRSC27058	0.706	0.608	1.48
ReepA	DRSC29893	0.345	0.895	-0.349
CG2767	DRSC15451	0.232	-0.463	-0.453
CG2767	DRSC26830	-0.684	-0.208	-0.233
CG34287	DRSC38668	-0.379	-0.427	0.0288
CG10927	DRSC06014	-0.027	-0.801	-1.09
CG10927	DRSC29800	-0.1	0.266	0.434
Paics	DRSC20305	0.388	-3.28	0.843
CG2187	DRSC15425	-3.39	0.172	-0.547
CG2187	DRSC25548	1.07	0.0507	1.01
ihog	DRSC03157	-0.146	-6.64	0.212
ihog	DRSC29581	-0.423	-0.75	-0.802
Rpn1	DRSC11274	1.15	1.6	1.08
Obp50b + Obp50c	DRSC21818	-2.26	-1.46	-0.817
CG15080	DRSC06511	0.241	1.44	1.2
CG15080	DRSC29374	-0.144	0.14	-0.473
CG6026	DRSC15950	-0.166	-0.295	-5.71
CG6277	DRSC16008	-1.56	0.677	-4.36
CG6277	DRSC25150	0.155	-1.66	0.669
Hacd1	DRSC02988	-0.979	-2.41	-0.558
CG13722	DRSC08331	-8.47	-1.26	0.0445
CG13722	DRSC21616	0.958	0.754	1.24
CG13722	DRSC24663	0.298	-0.322	-0.027
CG12728	DRSC17883	1.43	-0.46	0.397
CG12728	DRSC41534	-0.175	0.693	0.982
vg	DRSC07715	-3.22 (active)	-1.91	-1.38
vg	DRSC22669	0.344	-0.00837	0.348
vg	DRSC29857	0.107	-1.07	0.494
CG18810	DRSC02701	1.31	-0.145	-0.623
Polr2E	DRSC06100	0.277	1.04	1
CG8272	DRSC07134	-0.613	-0.374	-8.39
CG32813	DRSC17948	1.7	-1.22	-0.313
CG32813	DRSC24734	0.925	0.409	0.0395
PH4alphaSG1	DRSC15080	-1.16	-0.179	-0.487
Sik2	DRSC18522	-0.76	1.23	-0.678
KP78a + KP78b	DRSC16721	-3.49	0.0876	0.478
KP78a + KP78b	DRSC29265	-0.754	-0.199	0.765
kune	DRSC04860	0.633	-1.4	-0.243
egg	DRSC04119	0.413	-0.634	-1.96
egg	DRSC22534	0.429	1.08	0.358
egg	DRSC28455	-0.328	2.23	0.98
CG5612	DRSC15844	0.743	-1.57	-2.18
Ras64B	DRSC08689	0.0977	-1.66	-0.963
Ras64B	DRSC26766	0.226	-0.948	-0.437
Vha13	DRSC16895	-1.36	-2.3	-0.895
Sclp	DRSC19851	1.02	-0.169	-1.61
CG32391	DRSC08865	0.716	1.33	0.964
ppk8	DRSC17269	-0.632	-4.47	-0.081
CG34196	DRSC38864	-5.02	-3.41	-1.2

Records above called active:
predicted target	DRSC id	Wolbachia per cell robust z, rep 1	Wolbachia per cell robust z, rep 2	Wolbachia per cell robust z, rep 3
ema	DRSC14536	-1.56 (active)	-4.98	0.279
Wnt4	DRSC00976	-1.73 (active)	-1.23	-1.56
vg	DRSC07715	-3.22 (active)	-1.91	-1.38
